Test results taken from patent publication US8765722B2 (priority 2009, dated 2014).
Only a part of the results on these compounds is given; other tests are left out.

System: human hepatoma Huh-7 cell line harboring a HCV replicon
Assay: HCV replicon assay (luciferase) in Huh-7 cells
Assay type: cell-based
Settings: Huh-7 HCV replicon cells, 3 days incubation, inhibition of viral replication

In the case of `COP1(=O)CCC(N2CCC(N(c3cc(C#CC(C)(C)C)sc3C(=O)O)C(=O)[C@H]3CC[C@H](C)CC3)CC2)CC1` (stereo partly shown), the “% inhibition at 2 μM” value is reported as 100.0%.
